Measured values from several laboratories, pooled; numbers as filed in NIAID ChemDB.

Shared fields: growth or infection tests; species: HIV-1; read-out: inhibition

Blank or dashed fields: not listed here. Inhibition is in % at the dose shown (toxicity tests: loss of growth or viability). Rows are shuffled and stem from different studies.

SMILES,strain,changes,method,tested at,result
Cc1cc(C)cc(C[C@@H]2[C@H](O)[C@@H](O)[C@@H](Cc3ccccc3)N(Cc3ccc4[nH]nc(N)c4c3)C(=O)N2Cc2ccccc2)c1,RF,-,-,0.05 µM,90%
C=C(C)[C@@H]1CC[C@]2(C(=O)O)CC[C@]3(C)C(CCC4[C@@]5(C)CC[C@H](OC(=O)CN(OC)C6O[C@@H](CO)[C@H](O)[C@H](O)[C@H]6O)C(C)(C)C5CC[C@]43C)C12,IIIB,-,cytopathic effect,10 µM,5%
O=S(=O)(c1cccc2cnccc12)N1CCNCC1,LAI,-,-,16.7 µM,85.4%
Cc1cc(C=O)cc(C)c1Oc1cc(Nc2ccc(C#N)cc2)nc2ccccc12,-,-,RT activity / ELISA,1 µM,34%
CC1CNCCN1S(=O)(=O)c1cccc2cnccc12,LAI,-,-,16.7 µM,98%
O=C1CC(C#CC2CC2)(C(F)(F)F)c2cc(Cl)ccc2N1,-,RT-L100I,-,0.992 µM,90%
COc1ccc(N(C)C(=O)[C@H](Cc2ccccc2)NC(=O)CN2C(=O)NC3(CCCCC3)C2=O)cc1,NL4-3,-,fluorescence,20 µg/mL,93%
CCC(=O)Nc1ccn([C@H]2CC[C@@H](COC(=O)CC)O2)c(=O)n1,-,-,cytopathic effect,25 µM,0%
CC[C@@H](O)[C@]1(C)C[C@H](C)[C@@](O)([C@H]2C[C@H](C)[C@H]([C@]3(C)CC[C@H]([C@@H]4CC[C@@]5(O[C@H]([C@@H](C)[C@@H](OC)[C@H](C)C(=O)O)[C@H](C)[C@@H](OC)[C@H]5C)O4)O3)O2)O1,-,-,MTT / ELISA,10 µg/mL,100%
CN(C(=O)[C@H](Cc1ccccc1)NC(=O)Cc1cccc2ccccc12)c1ccccc1,NL4-3,-,fluorescence,20 µM,100%
CCOP(=O)(CC(O)n1cc(-n2ccc(=O)[nH]c2=O)nn1)OCC,IIIB,-,-,100 µM,0%
CN(C(=O)[C@H](Cc1ccccc1)NC(=O)CN1C(=O)NC2(CCCc3ccccc32)C1=O)c1ccccc1,NL4-3,-,fluorescence,20 µM,32%
Cc1cn([C@@H]2C[C@H](CO)N(O)C2)c(=O)[nH]c1=O,-,-,-,100 µM,0%
Cc1cccc2c1NC(=O)C2CC(=O)N[C@@H](Cc1ccccc1)C(=O)N(C)c1cccc(Cl)c1,NL4-3,-,fluorescence,2 µM,14%
CCCCCCCCCCCCCCCC(=O)NC1C(COP(=O)(O)OC2C(O)C(COP(=O)(O)OC3CC(CO)OC3n3cnc4c(N)ncnc43)OC2n2cnc3c(N)ncnc32)OC(n2cnc3c(N)ncnc32)C1O,-,-,syncytia,100 µM,91%
Cc1ccc(N(C)C(=O)[C@H](Cc2ccccc2)NC(=O)Cc2cccc3ccccc23)cc1,NL4-3,-,fluorescence,20 µM,100%
C=C(C)[C@@H]1CC[C@]2(C(=O)O)CC[C@]3(C)C(CCC4[C@@]5(C)CC[C@H](OC(=O)CN(OC)[C@H]6OC[C@H](O)[C@@H](O)[C@@H]6O)C(C)(C)C5CC[C@]43C)C12,IIIB,-,cytopathic effect,10 µM,43%
Nc1ccn([C@@H]2O[C@H](CO)C=C2F)c(=O)n1,xxBRU,-,cytopathic effect / MTT,8 µM,90%
NCCNS(=O)(=O)c1cccc2c(Cl)cccc12,LAI,-,-,16.7 µM,28%
C=C(C)[C@@H]1CC[C@]2(C(=O)O)CC[C@]3(C)C(CCC4[C@@]5(C)CC[C@H](OC(=O)CN(OC)[C@@H]6OC[C@@H](O)[C@H](O)[C@@H]6O)C(C)(C)C5CC[C@]43C)C12,IIIB,-,cytopathic effect,10 µM,6%
C/C=C/C=C/C(=O)[C@@]12O[C@@H]1[C@](C)(O)C(O)=C(C)C2=O,-,-,RT activity / ELISA,200 µg/mL,63.8%
O=S(=O)(O)c1c2ccccc2c(-c2c3nc(c(-c4c5ccccc5c(S(=O)(=O)O)c5ccccc45)c4ccc([nH]4)c(-c4c5ccccc5c(S(=O)(=O)O)c5ccccc45)c4nc(c(-c5c6ccccc6c(S(=O)(=O)O)c6ccccc56)c5ccc2[nH]5)C=C4)C=C3)c2ccccc12,89.6,-,-,50 µg/mL,90%
Cc1cn([C@@H]2C[C@H](CO)N(C=O)C2)c(=O)[nH]c1=O,-,-,-,100 µM,0%
O=C1Nc2ccc(Cl)cc2C(C#Cc2cccnc2)(C(F)(F)F)O1,-,-,-,0.00367 µM,90%
CCOP(=O)(CC(O)n1cc(C2N=C3C(N)=NC=NC3N2C)nn1)OCC,IIIB,-,-,100 µM,0%
CC(C)(C)C(=O)Nc1ccn([C@H]2CC[C@@H](CO)O2)c(=O)n1,-,-,cytopathic effect,100 µM,42%

Repeating the final 2 entries:

SMILES,strain,changes,method,tested at,result
CCOP(=O)(CC(O)n1cc(C2N=C3C(N)=NC=NC3N2C)nn1)OCC,IIIB,-,-,100 µM,0%
CC(C)(C)C(=O)Nc1ccn([C@H]2CC[C@@H](CO)O2)c(=O)n1,-,-,cytopathic effect,100 µM,42%